## Potato spindle tuber viroid, loop 15: variant abundance in plants

Values reported by Wu et al. 2024 (doi:10.1371/journal.ppat.1012142).

The pool varies loop 15 of the PSTVd intermediate strain in the pattern GGAAACCGNNNNNNC; wild type is GGAAACCGCUACUAC (upper and lower strand joined, each 5' to 3', the first 7 letters being the upper strand, closing pairs included).

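A pool of all variants was put on leaves of three Nicotiana benthamiana plants. Progeny were sequenced from the inoculated region (day 5), the margin of the inoculated leaf (day 10) and systemic leaves (day 12).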

Values are reads per thousand in the sample; higher means more abundant, 0 means not found. Each value is the mean of three plants. "Pool" is the share in the plasmid pool used as inoculum, on the same scale. The inoculated region was read from the minus strand, the other sites from the plus strand. Sequences that differ at fixed positions probably stem from PCR or sequencing errors, and defective variants can be carried along by functional ones. With 43,870-66,106 reads a sample, very low values are single reads. For reference, wild type rose from 33.9 per thousand in the pool to 202, 200, 159 (inoculated region), 724, 746, 710 (leaf margin) and 856, 883, 880 (systemic leaves).

{"sequence": "GGAAACCGAACCCCC", "pool": "0.208", "inoculated region": 0.108, "leaf margin": 0.00539, "systemic leaves": 0.0130}
{"sequence": "GGAAACCGAAUUGCC", "pool": "0.288", "inoculated region": 0.102, "leaf margin": 0, "systemic leaves": 0.00537}
{"sequence": "GGAAACCGACAGAUC", "pool": "0.240", "inoculated region": 0.333, "leaf margin": 0.0760, "systemic leaves": 0.0268}
{"sequence": "GGAAACCGACGAAGC", "pool": "0.144", "inoculated region": 0.0728, "leaf margin": 0.00539, "systemic leaves": 0}
{"sequence": "GGAAACCGACUCAGC", "pool": "0.320", "inoculated region": 0.0803, "leaf margin": 0, "systemic leaves": 0.00760}
{"sequence": "GGAAACCGAUAAUGC", "pool": "0.288", "inoculated region": 0.235, "leaf margin": 0.0833, "systemic leaves": 0.0717}
{"sequence": "GGAAACCGAUGGGGC", "pool": "0.208", "inoculated region": 0.0940, "leaf margin": 0.0200, "systemic leaves": 0}
{"sequence": "GGAAACCGAUGUGAC", "pool": "0.272", "inoculated region": 0.0872, "leaf margin": 0.0121, "systemic leaves": 0}
{"sequence": "GGAAACCGAUUUGGC", "pool": "0.0960", "inoculated region": 0.214, "leaf margin": 0.0121, "systemic leaves": 0}
{"sequence": "GGAAACCGCAAGAGC", "pool": "0.192", "inoculated region": 0.121, "leaf margin": 0.0141, "systemic leaves": 0.00537}
{"sequence": "GGAAACCGCAGAGGC", "pool": "0.224", "inoculated region": 0.128, "leaf margin": 0, "systemic leaves": 0.00537}
{"sequence": "GGAAACCGCAGCCGC", "pool": "0.224", "inoculated region": 0.350, "leaf margin": 0.0469, "systemic leaves": 0.0107}
{"sequence": "GGAAACCGCGUUUAC", "pool": "0.288", "inoculated region": 0.317, "leaf margin": 0.140, "systemic leaves": 0.00537}
{"sequence": "GGAAACCGGCAUACC", "pool": "0.256", "inoculated region": 0.147, "leaf margin": 0.00539, "systemic leaves": 0}
{"sequence": "GGAAACCGGGAGGUC", "pool": "0.240", "inoculated region": 0.0945, "leaf margin": 0.00742, "systemic leaves": 0}
{"sequence": "GGAAACCGGGUAUUC", "pool": "0.336", "inoculated region": 0.0525, "leaf margin": 0, "systemic leaves": 0}
{"sequence": "GGAAACCGGUCUGGC", "pool": "0.240", "inoculated region": 0.0742, "leaf margin": 0.0282, "systemic leaves": 0.0152}
{"sequence": "GGAAACCGGUGUGAC", "pool": "0.304", "inoculated region": 0.107, "leaf margin": 0, "systemic leaves": 0}
{"sequence": "GGAAACCGUACUUCC", "pool": "0.224", "inoculated region": 0.119, "leaf margin": 0.0128, "systemic leaves": 0}
{"sequence": "GGAAACCGUCCGCGC", "pool": "0.272", "inoculated region": 0.0666, "leaf margin": 0.0175, "systemic leaves": 0}
{"sequence": "GGAAACCGUCUCCAC", "pool": "0.112", "inoculated region": 0.0685, "leaf margin": 0.00539, "systemic leaves": 0}
{"sequence": "GGAAACCGUGAAAUC", "pool": "0.192", "inoculated region": 0.0923, "leaf margin": 0, "systemic leaves": 0.00537}
{"sequence": "GGAAACCGUGAGUCC", "pool": "0.288", "inoculated region": 0.449, "leaf margin": 0.0908, "systemic leaves": 0.0386}
{"sequence": "GGAAACCGUGGGUAC", "pool": "0.0800", "inoculated region": 0.288, "leaf margin": 0.112, "systemic leaves": 0.0613}

Extract of 3 entries:

sequence,pool,inoculated region,leaf margin,systemic leaves
GGAAACCGUGAAAUC,0.192,0.0923,0,0.00537
GGAAACCGACAGAUC,0.240,0.333,0.0760,0.0268
GGAAACCGAUGGGGC,0.208,0.0940,0.0200,0